Literature values, collected in patent US10073089B2 (priority 2011, dated 2018).

System: torpedo electrocyte membranes

In the case of 13-desmethyl spirolide C [13-SPX C], the “Sensitivity (amount in μg of toxin in the well)” value is given as 13-SPX C: 85 μg.
For gymnodimine A [GYM A], the “Quantification range (nM)” value is given as “GYM A: 12.5-500 nM”.
